This assay deals with N-lobe of M. bovis LbpB in the His-BAP-MBP vector (BLI construct) (Moraxella bovis strain N114). The experiment in a line: BLI. (In general: In BLI a coated tip is dipped into the sample, and binding shifts an interference pattern.)

Substance “bovine lactoferrin (Lf) (natural protein)” had a fold weaker than CaHD:Lf of 5 fold.

For the origin of these results see article PMC11022072, “A secreted bacterial protein protects bacteria from cationic antimicrobial peptides by entrapment in phase-separated droplets” (2024).
